Measurements reported in PubChem BioAssay AID624099 (ICCB-Longwood, 2012)
Shown is an unselected part of about 21,000 reagents tested. 497 of all reagents (2.4%) were called active. 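Higher z means weaker E2 silencing; only reporter increases were scored, and knock-downs that hurt cell survival may mask genuine repressor factors.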 Entries without a mark were called inactive.

Purpose: 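Human genes that papillomavirus E2 requires to repress the HPV18 LCR promoter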 (primary screen)
Cells: human C33A cervical carcinoma cells (HPV-negative) stably expressing BPV1 E2 and an HPV18 LCR luciferase reporter
Knock-down reagent: siRNA pool against human genes, 40 nM
Timing: 72 h
Measured: 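Per-well luciferase luminescence, z-scored on each plate against the plate mean and SD with control wells left out, then averaged across three replicate plates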
Reading the numbers: mean z-score and z-score: higher = stronger reporter signal, weaker E2 silencing
Hit rule: 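Hit if mean z-score reaches 2 and two or more of three replicate z-scores also reach 2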

| gene | mean z-score | z-score, replicate A | z-score, replicate B | z-score, replicate C |
| --- | --- | --- | --- | --- |
| EIF3KP1 | 0.92 | 1.08 | 0.65 | 1.04 |
| RAB10 | 1 | 1.04 | 1.16 | 0.8 |
| GDAP2 | -0.86 | -0.97 | -0.73 | -0.89 |
| MAVS | -1.06 | -1.1 | -0.83 | -1.24 |
| TMEM116 | -0.78 | -0.93 | -0.51 | -0.9 |
| ANKDD1B | -0.71 | -0.55 | -0.87 | -0.7 |
| ALG10B | -0.81 | -0.31 | -0.91 | -1.2 |
| GDF3 | -0.45 | -0.5 | -0.64 | -0.21 |
| LOC400053 (retired record) | -1.19 | -1.05 | -1.01 | -1.51 |
| NAV2 | 0.05 | 0.35 | 0.23 | -0.44 |
| POLR2L | -1.17 | -1.28 | -1.11 | -1.1 |
| PPIG | 1.39 | 1.54 | 1.46 | 1.18 |
| INSIG1 | 0.88 | 0.83 | 0.89 | 0.93 |
| HRC | 1.09 | 0.85 | 0.97 | 1.46 |
| ENPP1 | 0.05 | -0.02 | 0.05 | 0.12 |
| USP46 | -0.46 | -0.3 | -0.51 | -0.57 |
| EBF1 | 0.91 | 0.69 | 0.84 | 1.2 |
| RPLP2 | -2.54 | -2.55 | -2.59 | -2.5 |
| BMI1 | 0.07 | -0.03 | 0.18 | 0.07 |
| SLC38A9 | -0.64 | -0.61 | -0.67 | -0.64 |
| INTS4 | 2.71 (active) | 2.4 | 3.5 | 2.25 |
| ESRRB | -0.76 | -0.64 | -0.7 | -0.93 |
| C8B | 0.22 | -0.09 | 0.44 | 0.32 |
| ERVV-1 | -2.36 | -2.71 | -2.16 | -2.21 |
| SRRT | -0.39 | -0.34 | -0.31 | -0.5 |
| PPP2R5B | 0.8 | 0.84 | 0.74 | 0.82 |
| MTMR14 | -0.88 | -0.56 | -1.21 | -0.86 |
| MAGEA2 | 3.02 (active) | 3.03 | 2.95 | 3.1 |
| DEFA4 | 1.03 | 0.81 | 1.28 | 0.99 |
| FAM169BP | -1.15 | -0.86 | -1.34 | -1.24 |
| FLNC | -0.22 | -0.42 | -0.17 | -0.08 |
| CLCA1 | 0.37 | 0.85 | 0.15 | 0.1 |
| TEF | -0.27 | 0.08 | -0.25 | -0.65 |
| DEPTOR | -0.91 | -0.83 | -0.83 | -1.07 |
| USHBP1 | 0.92 | 0.93 | 0.81 | 1.02 |
| PACRG | -1.1 | -1.02 | -1.06 | -1.22 |
| KDM1A | -0.89 | -0.67 | -0.78 | -1.21 |
| MTERF2 | -1.36 | -1.34 | -1.52 | -1.2 |
| CDY2A | 0.48 | 0.08 | 0.41 | 0.93 |
| SORT1 | -1.17 | -1.34 | -1.26 | -0.92 |
| CIROZ | 0.25 | 0.48 | -0.09 | 0.37 |
| HAPLN3 | -0.79 | -1.2 | -0.67 | -0.51 |
| TIGD1 | -0.25 | -0.18 | -0.06 | -0.51 |
| KIR3DX1 | 0.38 | 0.5 | 0.15 | 0.5 |
| GNAT3 | 0.82 | 0.74 | 0.97 | 0.75 |
| GDPD1 | 0.15 | 0.16 | 0.08 | 0.21 |
| GK | 0.05 | 0 | 0.18 | -0.02 |
| DHRS13 | -0.44 | -0.29 | -0.75 | -0.29 |
| TBL1XR1 | -0.83 | -0.91 | -0.69 | -0.88 |
| GAD2 | -0.58 | -0.43 | -0.7 | -0.61 |
| OR3A4P | 2.73 (active) | 2.67 | 3 | 2.51 |
| STAG3 | -1.01 | -0.32 | -1.2 | -1.52 |
| MRPS24 | -0.36 | -0.31 | -0.51 | -0.27 |
| DDX6 | -0.37 | -0.16 | -0.59 | -0.34 |
| SCAMP3 | -0.8 | -1.1 | -0.75 | -0.54 |
| SERPINB9P1 | 1.08 | 1.09 | 1.12 | 1.03 |
| PRDM2 | -0.88 | -1 | -0.61 | -1.03 |

Records listed so far whose gene name begins with M or m (5):
| gene | mean z-score | z-score, replicate A | z-score, replicate B | z-score, replicate C |
| --- | --- | --- | --- | --- |
| MAVS | -1.06 | -1.1 | -0.83 | -1.24 |
| MTMR14 | -0.88 | -0.56 | -1.21 | -0.86 |
| MAGEA2 | 3.02 (active) | 3.03 | 2.95 | 3.1 |
| MTERF2 | -1.36 | -1.34 | -1.52 | -1.2 |
| MRPS24 | -0.36 | -0.31 | -0.51 | -0.27 |
